System: rat gingival epithelial cells (GEC)
Assay: Mass spectrometry differential profiling of degradation products of gingival epithelial cells treated with purified gingipains
Conditions: 37° C. 1 hr, MALDI-TOF

TIVEEVQDGKVISSREQVHQTTR (listed as Homo sapiens) [peptide 5]
Peak intensity ratio relative to control (enzyme-free group) (HRgpA treatment): 8.4
Peak intensity ratio relative to control (enzyme-free group) (RgpB treatment): 18.7

Source: patent US10627412B2, “Periodontal-disease-specific peptide, and treatment and diagnosis of periodontal disease using same” (KAGOSHIMA UNIVERSITY, priority 2010, dated 2020)
